Reference: US7541020B2, “Aminoalkyl glucosaminide phosphate compounds and their use as adjuvants and immunoeffectors” (priority 1997, dated 2009)
Where “and” joins values, the source holds several entries; their conditions need not be identical. Identical values can stand only once.

Columns and labels:
tetanus toxoid [1] = conditions: mouse, in vivo, sc
tetanus toxoid [2] = conditions: mouse, in vivo
For Anti-tetanus toxoid IgG1 T/C in this document: test concentration or dose not given here.
For Anti-tetanus toxoid IgG2b Titer in this document: test concentration or dose not given here.

Substance	Anti-tetanus toxoid IgG1 T/C (tetanus toxoid [1])	Anti-tetanus toxoid IgG1 Titer (tetanus toxoid [1])	Anti-tetanus toxoid IgG2a T/C (tetanus toxoid [1])	Anti-tetanus toxoid IgG2a Titer (tetanus toxoid [1])	Anti-tetanus toxoid IgG2b T/C (tetanus toxoid [1])	Anti-tetanus toxoid IgG2b Titer (tetanus toxoid [1])	Anti-tetanus toxoid IgM T/C (tetanus toxoid [1])	Anti-tetanus toxoid IgM Titer (tetanus toxoid [1])	Anti-tetanus toxoid Total IgG T/C (tetanus toxoid [1])	Anti-tetanus toxoid Total IgG Titer (tetanus toxoid [1])	Anti-Tetanus Toxoid Titer^−1 Fecal Extract IgA (tetanus toxoid [2])	Anti-Tetanus Toxoid Titer^−1 Fecal Extract IgG (tetanus toxoid [2])	Anti-Tetanus Toxoid Titer^−1 Vaginal Wash IgA (tetanus toxoid [2])
3-Hydroxy-(R)-2-[(R)-3-tetradecanoyloxytetradecanoylamino]propyl 2-Deoxy-4-O-phosphono-2-[(R)-3-tetradecanoyloxytetradecanoylamino]-3-O-[(R)-3-tetradecanoyloxytetradecanoyl]-β-D-glucopyranoside Triethylammonium Salt [B2]	2.16	464,000	4.28	21,700	1.57	45,200	4.50	7,200	3.84	24,800	–	–	–
3-Hydroxy-(S)-2-[(R)-3-decanoyloxytetradecanoylamino]propyl 2-Deoxy-4-O-phosphono-2-[(R)-3-decanoyloxytetradecanoylamino]-3-O-[(R)-3-decanoyloxytetradecanoyl]-β-D-glucopyranoside Triethylammonium Salt [B5]	–	–	–	–	–	–	–	–	–	–	3200 and 6400	50 and 100	3200
3-Hydroxy-(S)-2-[(R)-3-dodecanoyloxytetradecanoylamino]propyl 2-Deoxy-4-O-phosphono-2-[(R)-3-dodecanoyloxytetradecanoylamino]-3-O-[(R)-3-dodecanoyloxytetradecanoyl]-β-D-glucopyranoside Triethylammonium Salt [B3]	–	–	–	–	–	–	–	–	–	–	3200 and 6400	50 and 100	6400
3-Hydroxy-(S)-2-[(R)-3-tetradecanoyloxytetradecanoylamino]propyl 2-Deoxy-4-O-phosphono-2-[(R)-3-tetradecanoyloxytetradecanoylamino]-3-O-[(R)-3-tetradecanoyloxytetradecanoyl]-β-D-glucopyranoside Triethylammonium Salt [B1]	3.42	736,000	3.78	19,200	2.45	70,400	2.38	3,800	3.97	25,600	–	–	–
3-Hydroxy-(S)-2-[(R)-3-undecanoyloxytetradecanoylamino]propyl 2-Deoxy-4-O-phosphono-2-[(R)-3-undecanoyloxytetradecanoylamino]-3-O-[(R)-3-undecanoyloxytetradecanoyl]-β-D-glucopyranoside Triethylammonium Salt [B4]	–	–	–	–	–	–	–	–	–	–	–	25 and 50	–
